Measured values from several laboratories, pooled; numbers as filed in NIAID ChemDB.

Common to all: tests in culture; agent: Mycobacterium kansasii; measure: MIC

Lines come from different laboratories, so protocols vary.

{"SMILES": "COc1cccc(CS/C(N)=N/N=C/c2cc(Cl)ccc2O)c1", "strain or isolate": "ATCC 12478", "conditions": "21 d", "method": "broth dilution", "value": "32 µM"}
{"SMILES": "O=C(Oc1ccc(Cl)cc1C(=O)Nc1cccc(C(F)(F)F)c1)c1cnccn1", "strain or isolate": "235/80", "conditions": "14 d", "value": "8 µM"}
{"SMILES": "Cc1ccc(-n2c(=O)oc3ccc(C)cc3c2=S)cc1", "strain or isolate": "My 235/80", "conditions": "21 d", "value": "4 µM"}
{"SMILES": "O=C(Nc1cccc(F)c1)c1ccc(Cl)cc1OS(=O)(=O)c1ccccc1", "strain or isolate": "6509/96", "conditions": "21 d", "value": "32 µM"}
{"SMILES": "O=c1oc2ccc(F)cc2c(=S)n1-c1ccc(Cl)c(Cl)c1", "strain or isolate": "My 235/80", "conditions": "14 d", "value": "2 µM"}
{"SMILES": "COc1ccc(CS/C(N)=N/N=C/c2ccccc2O)cc1", "strain or isolate": "6509/96", "conditions": "21 d", "method": "broth dilution", "value": "250 µM"}
{"SMILES": "Cc1ccc2oc(=S)n(-c3cccc(Cl)c3)c(=S)c2c1", "strain or isolate": "My 235/80", "conditions": "14 d", "value": "2 µM"}
{"SMILES": "N/C(=N\\N=C\\c1ccccc1)SCc1ccc(Br)cc1", "strain or isolate": "ATCC 12478", "conditions": "21 d", "method": "broth dilution", "value": "62.5 µM"}
{"SMILES": "O=C(Nc1ccc(Cl)c(Cl)c1)c1cc(Cl)ccc1OS(=O)(=O)c1ccccc1", "strain or isolate": "6509/96", "conditions": "7 d", "value": "8 µM"}
{"SMILES": "O=c1oc2ccc(Cl)cc2c(=S)n1-c1cccc(F)c1", "strain or isolate": "6509/96", "conditions": "21 d", "value": "8 µM"}
{"SMILES": "O=C(Oc1cc(Cl)ccc1C(=O)Nc1cccc(Cl)c1)c1cnccn1", "strain or isolate": "6509/96", "conditions": "14 d", "value": "4 µM"}
{"SMILES": "N/C(=N\\N=C\\c1cc(Cl)ccc1O)SCc1ccc(Cl)cc1", "strain or isolate": "ATCC 12478", "conditions": "21 d", "method": "broth dilution", "value": "32 µM"}
{"SMILES": "O=C(Oc1ccc(Cl)cc1C(=O)Nc1cccc(Cl)c1)c1cnccn1", "strain or isolate": "235/80", "conditions": "14 d", "value": "4 µM"}
{"SMILES": "O=C(Nc1ccc(Br)cc1)c1ccc(Br)cc1OS(=O)(=O)c1ccccc1", "strain or isolate": "235/80", "conditions": "21 d", "value": "16 µM"}
{"SMILES": "NNC(=O)c1ccncc1", "strain or isolate": "235/80", "conditions": "14 d", "value": ">250 µM"}
{"SMILES": "COc1ccc2oc(=O)n(-c3ccc(C)cc3)c(=S)c2c1", "strain or isolate": "6509/96", "conditions": "21 d", "value": "8 µM"}
{"SMILES": "O=C(Oc1cc(Cl)ccc1C(=O)Nc1cccc(F)c1)c1cnccn1", "strain or isolate": "6509/96", "conditions": "14 d", "value": "4 µM"}
{"SMILES": "Cc1ccc2oc(=O)n(-c3ccc(Cl)cc3)c(=S)c2c1", "strain or isolate": "6509/96", "conditions": "21 d", "value": "4 µM"}
{"SMILES": "O=C(Nc1ccc(Cl)c(Cl)c1)c1ccc(Cl)cc1OS(=O)(=O)c1ccccc1", "strain or isolate": "235/80", "conditions": "14 d", "value": "8 µM"}
{"SMILES": "COc1ccc2oc(=O)n(-c3ccccc3)c(=S)c2c1", "strain or isolate": "6509/96", "conditions": "14 d", "value": "8 µM"}
{"SMILES": "O=C(Nc1cccc(Br)c1)c1cc(Cl)ccc1OS(=O)(=O)c1ccccc1", "strain or isolate": "6509/96", "conditions": "14 d", "value": "8 µM"}